According to patent publication US20040132187A1 (PHARMACIA AND UPJOHN, published 2004):

How the values were obtained:
[1] = target: unlabeled α-bungarotoxin (UniProt P60615 22-95); experiment: competition against Fl-btx, whole cell fluorescence on FLIPR (legend of FIG. 5)
[2] = target: fluorescein labeled α-bungarotoxin (F-1176 Molecular Probes) (UniProt P60615 22-95); experiment: fluorescent toxin binding to transfected SH-EP1 cells

B1: α7/5-HT3 Chimeric Ligand Gated Ion Channel (human α7 nAChR N-terminal 201 amino acids joined to the (receptor)
chain: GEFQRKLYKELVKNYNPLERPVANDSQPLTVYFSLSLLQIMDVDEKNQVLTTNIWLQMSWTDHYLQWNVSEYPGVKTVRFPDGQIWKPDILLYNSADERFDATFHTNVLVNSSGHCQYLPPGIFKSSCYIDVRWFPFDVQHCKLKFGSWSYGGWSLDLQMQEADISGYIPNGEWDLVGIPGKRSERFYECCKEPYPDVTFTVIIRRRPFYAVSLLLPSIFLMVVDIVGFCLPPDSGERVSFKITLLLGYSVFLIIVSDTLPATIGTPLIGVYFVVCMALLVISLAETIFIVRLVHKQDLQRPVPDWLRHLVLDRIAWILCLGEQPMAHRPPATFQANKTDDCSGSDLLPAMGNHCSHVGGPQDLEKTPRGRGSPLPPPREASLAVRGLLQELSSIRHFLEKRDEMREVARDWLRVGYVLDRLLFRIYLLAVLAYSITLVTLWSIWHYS
binding result [1]: binds | binding result [2]: binds
